In publication doi:10.1101/2020.01.05.895227:
For at least one entry, the source does not settle the construct or the ends of the probe. For some assays here: The comparison behind a weaker result is the experiment's own reference, which may not be listed here. For some assays here: At least one verdict rests on a figure or table, not on a statement of the authors.

Protein sequences, listed by entry. Tags and fused reporters are not part of them. Lines headed by an entry give the natural chain unless they say otherwise; changes in a name come on top.
UniProt J9VI03: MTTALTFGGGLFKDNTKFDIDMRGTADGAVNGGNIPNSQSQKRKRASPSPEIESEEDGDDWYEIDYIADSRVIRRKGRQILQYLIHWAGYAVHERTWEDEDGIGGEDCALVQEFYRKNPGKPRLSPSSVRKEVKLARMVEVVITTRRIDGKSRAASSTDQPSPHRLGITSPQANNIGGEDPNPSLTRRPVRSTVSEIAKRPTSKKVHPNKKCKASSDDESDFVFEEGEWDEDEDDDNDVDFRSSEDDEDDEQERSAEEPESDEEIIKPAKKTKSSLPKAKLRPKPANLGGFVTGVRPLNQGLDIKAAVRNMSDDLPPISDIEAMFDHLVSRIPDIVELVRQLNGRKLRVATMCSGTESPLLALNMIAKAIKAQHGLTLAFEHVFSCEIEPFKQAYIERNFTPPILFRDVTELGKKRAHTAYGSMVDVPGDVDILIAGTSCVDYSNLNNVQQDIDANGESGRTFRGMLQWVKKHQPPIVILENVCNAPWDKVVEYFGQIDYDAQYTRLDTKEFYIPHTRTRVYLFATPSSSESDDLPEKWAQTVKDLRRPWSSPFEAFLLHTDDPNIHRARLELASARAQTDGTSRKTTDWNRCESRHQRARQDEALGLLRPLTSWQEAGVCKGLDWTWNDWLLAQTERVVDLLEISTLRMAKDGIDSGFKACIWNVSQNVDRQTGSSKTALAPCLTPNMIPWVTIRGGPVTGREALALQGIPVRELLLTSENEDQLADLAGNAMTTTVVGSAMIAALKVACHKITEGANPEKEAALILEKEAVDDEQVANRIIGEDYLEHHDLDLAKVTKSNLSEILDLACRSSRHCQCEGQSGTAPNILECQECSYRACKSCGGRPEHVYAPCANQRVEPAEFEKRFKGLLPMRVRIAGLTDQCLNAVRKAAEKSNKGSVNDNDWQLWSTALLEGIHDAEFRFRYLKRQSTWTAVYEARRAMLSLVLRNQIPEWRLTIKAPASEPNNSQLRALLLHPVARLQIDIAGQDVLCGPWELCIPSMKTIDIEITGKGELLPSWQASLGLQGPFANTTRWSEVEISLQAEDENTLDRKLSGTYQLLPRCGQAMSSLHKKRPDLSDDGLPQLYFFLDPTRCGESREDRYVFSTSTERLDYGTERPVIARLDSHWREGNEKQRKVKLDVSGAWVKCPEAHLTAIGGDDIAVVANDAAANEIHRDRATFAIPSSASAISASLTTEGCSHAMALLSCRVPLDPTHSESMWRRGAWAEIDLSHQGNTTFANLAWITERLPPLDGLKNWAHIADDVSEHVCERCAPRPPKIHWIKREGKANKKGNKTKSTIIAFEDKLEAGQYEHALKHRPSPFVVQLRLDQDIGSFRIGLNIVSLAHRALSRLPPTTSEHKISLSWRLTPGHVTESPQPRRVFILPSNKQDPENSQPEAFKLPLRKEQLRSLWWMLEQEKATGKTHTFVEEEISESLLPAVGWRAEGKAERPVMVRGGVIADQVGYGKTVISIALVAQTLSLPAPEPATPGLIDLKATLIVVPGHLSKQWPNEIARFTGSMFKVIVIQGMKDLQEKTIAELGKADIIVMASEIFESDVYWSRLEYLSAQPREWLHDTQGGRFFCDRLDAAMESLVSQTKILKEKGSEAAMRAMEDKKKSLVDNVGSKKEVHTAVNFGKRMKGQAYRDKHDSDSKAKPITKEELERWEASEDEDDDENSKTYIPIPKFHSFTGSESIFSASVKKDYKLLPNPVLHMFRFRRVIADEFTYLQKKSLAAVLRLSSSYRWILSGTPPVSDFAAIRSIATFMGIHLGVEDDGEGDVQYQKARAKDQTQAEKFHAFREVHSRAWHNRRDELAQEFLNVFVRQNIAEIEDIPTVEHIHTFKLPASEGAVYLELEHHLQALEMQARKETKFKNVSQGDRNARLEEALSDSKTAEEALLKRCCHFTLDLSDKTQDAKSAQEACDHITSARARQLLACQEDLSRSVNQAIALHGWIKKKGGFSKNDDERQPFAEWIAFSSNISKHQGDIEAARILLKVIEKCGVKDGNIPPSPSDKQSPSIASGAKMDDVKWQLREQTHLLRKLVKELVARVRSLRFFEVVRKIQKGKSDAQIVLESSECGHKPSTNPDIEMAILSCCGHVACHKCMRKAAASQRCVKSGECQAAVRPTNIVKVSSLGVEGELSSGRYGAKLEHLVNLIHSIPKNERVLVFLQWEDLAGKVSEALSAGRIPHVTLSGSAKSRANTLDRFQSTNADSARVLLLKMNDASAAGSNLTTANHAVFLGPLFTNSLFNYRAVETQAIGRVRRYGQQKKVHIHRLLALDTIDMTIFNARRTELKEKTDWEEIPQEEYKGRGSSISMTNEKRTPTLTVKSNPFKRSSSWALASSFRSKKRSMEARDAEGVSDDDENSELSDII

Experiments:
[1] = biological target: Dnmt5 full-length (Cryptococcus neoformans) (UniProt J9VI03); test: EMSA; conditions: 1 mM MgCl2, 5mC at strand 1 positions 13, 34, 47, residues 1-2377
[2] = biological target: Dnmt5 full-length (Cryptococcus neoformans) (UniProt J9VI03); test: competition with a labelled probe; conditions: 1 uM competitor, 67 nM protein, 1 nM labeled unmethylated DNA; residues 1-2377

Sequence	binding result ([1]; 1 mM ADP)	binding result ([1]; 1 mM AMP-PCP)	Kd ([1]; 1 mM AMP-PNP) [nM]	binding result ([1]; 1 mM ATP)	binding result [2]
CATGGCCTAAGCCGGACTGAATGAGCAAGCTTCCGGAGAATTCTGCCGGACTGCAGATGC (double strand) [Hemimethylated 60 bp DNA (3 CG), Cy5]	binds more weakly	binds more weakly	> 100	binds more weakly	
CATGGCCTAAGCCGGACTGAATGAGCAAGCTTCCGGAGAATTCTGCCGGACTGCAGATGC (double strand) [Unlabeled unmethylated competitor DNA]					binds
